What was measured:
[1] = tested on: Anthracnose fungus (Glomerella cingulata); assay: Anthracnose anti-germ test (Test Example E); settings: for Anthracnose anti-germ test (rate of inhibition): 50 ppm/well, Czapek-dox broth, 25°C for 3 days, absorbance 600 nm
[2] = tested on: Fusarium blight fungus (Fusarium graminearum); assay: Fusarium blight anti-germ test (Test Example D); settings: for Fusarium blight anti-germ test (rate of inhibition): 50 ppm/well, Czapek-dox broth, 25°C for 3 days, absorbance 600 nm
Botrytis cinerea = assay: Tomato gray mold pot test (Test Example B); settings: for Tomato gray mold pot test (control value): 250 ppm sprayed, 2.5 ml/pot, tomato variety Oogata Fukuju, degree of disease development 2 to 3 days after inoculation
Magnaporthe grisea = assay: Rice blast disease pot test (Test Example A); settings: for Rice blast disease pot test (control value): 250 ppm sprayed, 2.5 ml/pot, rice variety Sachikaze, degree of disease development 6 to 8 days after inoculation
[3] = tested on: Gray mold fungus (Botrytis cinerea); assay: Gray mold anti-germ test (Test Example C); settings: for Gray mold anti-germ test (rate of inhibition): 50 ppm/well, Czapek-dox broth, 25°C for 3 days, absorbance 600 nm
[4] = tested on: Speckled leaf blotch fungus (Septoria tritici); assay: Speckled leaf blotch anti-germ test (Test Example F); settings: for Speckled leaf blotch anti-germ test (rate of inhibition): 50 ppm/well, Czapek-dox broth, 25°C for 3 days, absorbance 600 nm

| Compound | Anthracnose anti-germ test (rate of inhibition) [1] | Fusarium blight anti-germ test (rate of inhibition) [2] | Tomato gray mold pot test (control value) (Botrytis cinerea) | Rice blast disease pot test (control value) (Magnaporthe grisea) | Gray mold anti-germ test (rate of inhibition) [3] | Speckled leaf blotch anti-germ test (rate of inhibition) [4] | rate of inhibition ([1]; Test Example E, anthracnose anti-germ test) | rate of inhibition ([2]; Test Example D, Fusarium blight anti-germ test) | control value (Botrytis cinerea; Test Example B, tomato gray mold pot test) | control value (Magnaporthe grisea; Test Example A, rice blast disease pot test) | rate of inhibition ([3]; Test Example C, gray mold anti-germ test) | rate of inhibition ([4]; Test Example F, speckled leaf blotch anti-germ test) |
| --- | --- | --- | --- | --- | --- | --- | --- | --- | --- | --- | --- | --- |
| Cc1c(Cl)ccc2c1ncn2C1=NC(C)(C)Oc2c(Cl)cccc21 | H (H represents a control value or rate of inhibition of larger than 50%) | L (L represents a control value or rate of inhibition of 50% or less) | H (H represents a control value or rate of inhibition of larger than 50%) | H (H represents a control value or rate of inhibition of larger than 50%) | L (L represents a control value or rate of inhibition of 50% or less) | L (L represents a control value or rate of inhibition of 50% or less) | – | – | – | – | – | – |
| COCCC1(C)N=C(c2cnc3c(C)c(C)ccn23)c2ccccc2O1 (stereo not drawn) | – | – | – | – | – | – | H (H represents a control value or rate of inhibition of larger than 50%) | H (H represents a control value or rate of inhibition of larger than 50%) | H (H represents a control value or rate of inhibition of larger than 50%) | H (H represents a control value or rate of inhibition of larger than 50%) | H (H represents a control value or rate of inhibition of larger than 50%) | H (H represents a control value or rate of inhibition of larger than 50%) |
| COc1cccc2c1ncn2C1=NC(C)(C)Oc2cc(Br)ccc21 | H (H represents a control value or rate of inhibition of larger than 50%) | H (H represents a control value or rate of inhibition of larger than 50%) | L (L represents a control value or rate of inhibition of 50% or less) | L (L represents a control value or rate of inhibition of 50% or less) | H (H represents a control value or rate of inhibition of larger than 50%) | H (H represents a control value or rate of inhibition of larger than 50%) | – | – | – | – | – | – |
| Cc1ccc2c(c1)OC(C)(C)N=C2n1cnc2ccccc21 | L (L represents a control value or rate of inhibition of 50% or less) | L (L represents a control value or rate of inhibition of 50% or less) | L (L represents a control value or rate of inhibition of 50% or less) | L (L represents a control value or rate of inhibition of 50% or less) | L (L represents a control value or rate of inhibition of 50% or less) | L (L represents a control value or rate of inhibition of 50% or less) | – | – | – | – | – | – |
| CCCC1(C)N=C(n2cnc3c(Cl)cccc32)c2cccc(C)c2O1 (stereo not drawn) | H (H represents a control value or rate of inhibition of larger than 50%) | L (L represents a control value or rate of inhibition of 50% or less) | H (H represents a control value or rate of inhibition of larger than 50%) | H (H represents a control value or rate of inhibition of larger than 50%) | H (H represents a control value or rate of inhibition of larger than 50%) | L (L represents a control value or rate of inhibition of 50% or less) | – | – | – | – | – | – |
| CC1(C)N=C(n2cnc3c(Cl)cccc32)c2ccc(Br)cc2O1 | L (L represents a control value or rate of inhibition of 50% or less) | L (L represents a control value or rate of inhibition of 50% or less) | L (L represents a control value or rate of inhibition of 50% or less) | H (H represents a control value or rate of inhibition of larger than 50%) | L (L represents a control value or rate of inhibition of 50% or less) | L (L represents a control value or rate of inhibition of 50% or less) | – | – | – | – | – | – |

— patent publication EP4821928A1, “BICYCLIC HETEROCYCLIC COMPOUND AND FUNGICIDE FOR AGRICULTURAL AND HORTICULTURAL USE CONTAINING SAME AS ACTIVE INGREDIENT” (dated 2026)
